Data from publication PMC7232446, “Fc-Based Recombinant Henipavirus Vaccines Elicit Broad Neutralizing Antibody Responses in Mice” (Viruses, 2020).

B1: G protein of Malaysia Nipah virus, soluble extracellular domain (domain or fragment)
chain: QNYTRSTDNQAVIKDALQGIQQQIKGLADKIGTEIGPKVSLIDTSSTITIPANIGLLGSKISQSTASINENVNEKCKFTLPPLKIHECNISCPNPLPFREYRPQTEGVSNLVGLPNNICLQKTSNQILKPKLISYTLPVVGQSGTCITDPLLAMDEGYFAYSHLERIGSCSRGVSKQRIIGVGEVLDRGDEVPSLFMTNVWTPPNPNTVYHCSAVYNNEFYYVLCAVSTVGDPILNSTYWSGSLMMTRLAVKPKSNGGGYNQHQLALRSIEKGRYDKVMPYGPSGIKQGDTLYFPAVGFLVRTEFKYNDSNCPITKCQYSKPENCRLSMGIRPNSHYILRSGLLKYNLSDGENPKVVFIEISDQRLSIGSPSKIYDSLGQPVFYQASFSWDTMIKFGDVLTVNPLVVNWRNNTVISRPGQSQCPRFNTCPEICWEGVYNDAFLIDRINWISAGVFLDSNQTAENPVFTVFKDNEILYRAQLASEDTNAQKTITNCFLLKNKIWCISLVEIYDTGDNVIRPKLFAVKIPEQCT

Assays:
[1] = target: G protein of Bangladesh Nipah virus, soluble extracellular domain (Nipah virus (Bangladesh strain))
[2] = target: the molecule itself

Molecule	stoichiometry N [1]	stoichiometry N [2]
G protein of Bangladesh Nipah virus, soluble extracellular domain	2 and 4	
B1		2

“And” between values parts separate entries of the source, which are not always exact repeats. Equal entries are not always repeated.
